Publication PMC3458870 (PLoS ONE, 2012)

System: C[C@H](O)[C@H](O)[C@H]1CNc2nc(N)[nH]c(=O)c2N1
Assay: purified protein
Conditions: pH 7.0; 37.0 °C; varied: cofactor

lpPAH (phenylalanine hydroxylase from Legionella pneumophila; lpPAH-(His)6) (Legionella pneumophila subsp. pneumophila str. Philadelphia 1)
Km: 125 ± 25 µM
